# From US20210269512A1 (NOVOBIND LIVESTOCK THERAPEUTICS, published 2021)
# T1: NetB (necrotic enteritis toxin B) (Clostridium perfringens)
# T1 chain: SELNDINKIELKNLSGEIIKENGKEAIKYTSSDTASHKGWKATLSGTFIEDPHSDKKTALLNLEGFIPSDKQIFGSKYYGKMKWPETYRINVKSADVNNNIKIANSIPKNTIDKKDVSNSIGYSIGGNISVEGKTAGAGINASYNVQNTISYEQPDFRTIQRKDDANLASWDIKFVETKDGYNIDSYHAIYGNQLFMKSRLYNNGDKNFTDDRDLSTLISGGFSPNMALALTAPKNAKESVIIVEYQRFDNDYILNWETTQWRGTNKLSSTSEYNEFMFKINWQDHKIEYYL
# Biological target: T1, NetB (necrotic enteritis toxin B)
# Test: cell-based or functional assay
Binder,"IC50 < 50 nM, NetB cytotoxicity on LMH cells (LDH)","IC50 < 1 µM, NetB cytotoxicity on LMH cells (LDH)"
NBX0371 (VHH) VHH: QVQLQESGGGLVQAGGSLRLSCAASASIISIRVMGWYRQAPGKQRELVATMSRGGTINYADSVRGRFTISRDNAKSTVYLQMNSLKPEDTAVYYCTALLDSYYWGQGTQVTVSS,< 50 nM,< 1 µM
NBX0372 (VHH) VHH: QVQLQESGGGLVQAGGSLRLSCAASASIISIRVMGWYRQAPGKQRELVATMSRGGTINYADSVRGRFTISRDNAKSTVYLQMNSLKPEDTAVYYCAALLDSYYWGQGTQVTVSS,≥ 50 nM,< 1 µM
NBX0373 (VHH) VHH: QVQLQESGGGLVQAGGSLRLSCAASASIMSIRVMGWYRQAPGKQRELVATMSRGNTINYADSVRGRFTISRDNAKSTVFLEMNSLKPEDTAVYYCAALLDSYYWGQGTQVTVSS,≥ 50 nM,< 1 µM
NBX0375 (VHH) VHH: QVQLQESGGGLVQAGGSLRLSCVVSGSIMSIRVMGWYRQAPGKQRELVATMSRGGTINYADSVRGRFTISRDNAKSTVYLQMNSLKPEDTDVYYCAALLDSYYWGQGTQVTVSS,< 50 nM,< 1 µM
NBX0376 (VHH) VHH: QVQLQESGGGLVQAGGSLRLSCAASASIISIRVMGWYRQAPGKQRELVATMSRGGTINYADSVRGRFTISRDNAKSTVYLQMTSLKPEDTAVYYCAALLDSYYWGQGTQVTVSS,≥ 50 nM,< 1 µM
NBX0378 (VHH) VHH: QVQLQESGGGLVQAGGSLRLSCAASASIMSIRVMGWYRQAPGKQRELVATMSRGNTINYADSVRGRFTISRDNAKSTVYLQMNSLKPEDTAVYYCAALLDSYYWGQGTQVTVSS,≥ 50 nM,< 1 µM
NBX0304 (VHH) VHH: QVQLQESGGGLVQTGDSLRLSCTASGGTFSSYTMGWYRQAPGKGREFVGSITWNSEVTYYADSVKGRFTISRDNAKNMMNLQMNSLKPEDTAVYYCAAGRAGSGFTSWGQGTQVTVSS,≥ 50 nM,≥ 1 µM
NBX0379 (VHH) VHH: QVQLQESGGGLVQAGGSLRLSCVVSGSIMSIRVMGWYRQAPGKQRELVATMSRGNTINYADSVRGRFTISRDNAKSTVYLQMNSLKPEDTAVYYCAALLDSYYWGQGTQVTVSS,≥ 50 nM,< 1 µM
NBX0501 (VHH) VHH: QVQLQESGGGLVQAGGSLRLSCAASGSIFSINVMGWYRQAPGKQRDLVALITSGGSTTYADSVKGRFTISRDNAKNTVYLQMNSLKPEDTAVYYCNAAQSRTSWLFPDEYDYWGQGTQVTVSS,< 50 nM,< 1 µM
NBX0502 (VHH) VHH: QVQLQESGGGLVQAGGSLRLSCAASGRTFSIYAMGWFRQAPGKEREFVAVINRGGGTTTYADSVKGRFTISRDNTKNTVSLQMNSLKPDDTAVYYCAADRVTDTYYYLNPESYDYWGQGTQVTVSS,≥ 50 nM,≥ 1 µM
NBX0504 (VHH) VHH: QVQLQESGGGLVQAGGSLRLSCAASGRTFSIYAMGWFRQAPGKEREFVAVINRSGGTTTYADSVKGRFTISRDNTKNTVSLQMNSLKPDDTAVYYCAADRVTDTYYYLNPESYDYWGQGTQVTVSS,≥ 50 nM,≥ 1 µM
NBX0505 (VHH) VHH: QVQLQESGGGLVQAGGSLRLSCAASGMSFSLGTIYWYRQAPGKQREFVAFITNADTTMYANSVKGRFTISRDNGKNTVFLLMNNLKPEDSAVYYCNTATSWGQGTQVTVSS,< 50 nM,< 1 µM
NBX0539 (VHH) VHH: QVQLQESGGGLVQAGGSLRLSCVASGSGSRIGFMAWHRQTPGRQRELVAVINRTGATRYADSVKDRFTISRDNAKNTVYLQMNDLKPDDTALYYCFASVVDAGTYWGQGTQVTVSS,< 50 nM,< 1 µM
NBX0508 (VHH) VHH: QVQLQESGGGLVQAGGSLRLSCVASGSGSRINYMAWHRQTPGRQRELVAVINRTGAANYARSVKDRFTISRDNAKNTVYLQMNDLKPDDTAIYYCFASYLGAGAYWGQGTQVTVSS,≥ 50 nM,< 1 µM
NBX0510 (VHH) VHH: QVQLQESGGGLVQAGGSLRLSCVASGSGSRINYMAWHRQTPGRQRELVAVINRTGAAKYADSVKDRFTVSRDNAENTVYLQMNDLKPDDTAVYYCWASYLGAGTYWGQGIQVTVSS,< 50 nM,< 1 µM
NBX0546 (VHH) VHH: QVQLQQSGGGAVQAGGSLTLSCVASGSGSRIGLMAWYRQTPGRQRELVAVIKGTGTTRYADSVKDRFTISRDNAKNTMYLQMNDLKPDDTALYYCFASVLGAGTYWGQGTQVTVSS,< 50 nM,< 1 µM
NBX0509 (VHH) VHH: QVQLQESGGGLVQAGGSLRLSCAASGRTFSTYTVGWFRQAPGKEREFVASITWNGGTILYADSVKGRFTISRDNAKNTVLLQMNSLKPEDTAVYYCVMGAAGQGWRYWGQGTQVTVSS,≥ 50 nM,≥ 1 µM
NBX0305 (VHH) VHH: QVQLQESGGGLVQPGGSLRLSCTASGFTLDKYAVGWFRQAPGKEREGVSCISSIDDSTDYVDSVKGRFTISRDNAKNAVYLQMNSLKPEDTAVYNCMTIPLPYGSTCDIPSRSDLLAINYWGKGTLVTVSS,< 50 nM,< 1 µM
NBX0511 (VHH) VHH: QVQLQESGGGLVQPGGSLRLSCAASGFTFSRNYMSWVRQAPGKGLEWVGSIYSDDSTNYAPSVKGRFTISRDNAANTLYLQMNSLKSEDTAVYYCSKEGGLRGQGTQVTVSS,< 50 nM,< 1 µM
NBX0540 (VHH) VHH: QVQLQESGGGLVQPGGSLRVSCAASGLTFSDYAMGWFRQAPGQEREFVARISLTAASTLYADSVRGRFTISRDNAKNTVYLQMNSLRPDDTAVYYCAAQGRILRGRGLFKASDYDYWGQGTQVTVSS,< 50 nM,< 1 µM
NBX0541 (VHH) VHH: QVQLQQSGGGSVQTGGSLALSCAASGTISIFDPMGWYRQAPGKQRELVASISEGSTNYANSVKGRFTISRDNAKKTVSLQMNSLEPADTAVYYCRLSRYYNSNIYWGQGTQVTVSS,≥ 50 nM,< 1 µM
NBX0543 (VHH) VHH: QVQLQESGGGSVQTGGSLALSCVASGTLSLFDPMGWYRQAPGKQRELVASISGLSTNYANSVKGRFTISRDDAKKTVSLQMNSLEPADTAVYYCHLSRYYNSNIYWGQGTQVTVSS,≥ 50 nM,< 1 µM
NBX0547 (VHH) VHH: QVQLQESGGGSVQTGGSLALSCAASGTISLFDSMGWYRQAPGKQRELVASITEGSTNYANSVKGRFTISRDNAKKTVSLQMNSLEPADTAVYYCRLSRYYNSNIYWGQGTQVTVSS,≥ 50 nM,< 1 µM
NBX0542 (VHH) VHH: QVQLQESGGGLVQAGGSLRLSCAASRNIYGINVIAWYRQAPGKQREMVARSANGGTTRYADSVKGRFTISRDNVKNIVYLQMSSLKPEDTAAYYCKAELYTLQHNYEYWGQGTQVTVSS,< 50 nM,< 1 µM
NBX0544 (VHH) VHH: QVQLQESGGGLVQAGGSLRLSCAASGRVLSINAMGWYRQAPGKRREMVARITNGGSTNYAGSVKGRFTISRENTKNTMYLQMNSLKPEDTAVYYCLAEERPYYGGPLEYWGQGTQVTVSQ,< 50 nM,< 1 µM
NBX0545 (VHH) VHH: QVQLQESGGGLVQAGGSLRLSCAASRTTFRVGTMAWFRQDPGKQRELVAGITSGGSTNYADSVKGRFTISRDNAKNTIYLQMNSLKPEDTGIYVCFANIVDRPVSWGQGTQVTVSS,< 50 nM,< 1 µM
